Common to all, as to type: in vivo
The test system of assay [1] is Puccinia recondita (wheat). The assay can be described thus: Fungicidal test against foliar disease A (foliage spray plus soil drench). The following applies: 100 ppm spray and drench; 10 days.
The test system of assay [2] is Phytophthora infestans (tomato). The assay can be described thus: Fungicidal test against foliar disease B (foliage spray plus soil drench). The following applies: 100 ppm spray and drench; 3 days.
In assay [3] the test system is Plasmopara viticola (vine). The assay can be described thus: Fungicidal test against foliar disease C (foliage spray plus soil drench). The following applies: 100 ppm spray and drench; 10 days.
Assay [4] relates to Piricularia oryzae (rice). The assay can be described thus: Fungicidal test against foliar disease E (foliage spray plus soil drench). The following applies: 100 ppm spray and drench; 7 days.

In the case of `O=[N+]([O-])c1cc([N+](=O)[O-])c(Nc2c(F)c(F)nc(F)c2F)c([N+](=O)[O-])c1`, in assay [1], the “Amount of disease grading, disease A (Table 4)” value was 0 (61 to 100). The “Amount of disease grading, disease B (Table 4)” value in assay [2] is reported as 3 (0 to 5). Further, the “Amount of disease grading, disease C (Table 4)” value in assay [3] was 3 (0 to 5). Moreover, the “Amount of disease grading, disease E (Table 4)” value in assay [4] is reported as 0 (61 to 100).
